{"source": "patent US8093037B2", "about": "“Engineered microorganisms with enhanced fermentation activity” (Verdezyne, Inc., priority 2009, dated 2012)", "molecules": {"B1": {"name": "XI-R: native xylose isomerase of Ruminococcus flavefaciens strain 17, SEQ ID NO: 31 (protein, listed as Ruminococcus flavefaciens)", "chain": "MEFFSNIGKIQYQGPKSTDPLSFKYYNPEEVINGKTMREHLKFALSWWHTMGGDGTDMFGCGTTDKTWGQSDPAARAKAKVDAAFEIMDKLSIDYYCFHDRDLSPEYGSLKATNDQLDIVTDYIKEKQGDKFKCLWGTAKCFDHPRFMHGAGTSPSADVFAFSAAQIKKALESTVKLGGNGYVFWGGREGYETLLNTNMGLELDNMARLMKMAVEYGRSIGFKGDFYIEPKPKEPTKHQYDFDTATVLGFLRKYGLDKDFKMNIEANHATLAQHTFQHELRVARDNGVFGSIDANQGDVLLGWDTDQFPTNIYDTTMCMYEVIKAGGFTNGGLNFDAKARRGSFTPEDIFYSYIAGMDAFALGFRAALKLIEDGRIDKFVADRYASWNTGIGADIIAGKADFASLEKYALEKGEVTASLSSGRQEMLESIVNNVLFSL"}}, "test": "Western blot of His-tagged xylose isomerase constructs expressed in S. cerevisiae BY4742", "design": "species or system Saccharomyces cerevisiae", "settings": "p426GPD"}
{"molecule": "XI-P: xylose isomerase from Piromyces strain E2, SEQ ID NO: 35", "values": [{"measurement": "expression of xylose isomerase (western)", "result": "expressed in both the soluble and insoluble fractions"}, {"measurement": "expression of xylose isomerase (western)", "setting": "listed as wild type Piromyces xylose isomerase", "result": "expressed in the soluble fraction"}]}
{"molecule": "B1", "values": [{"measurement": "expression of xylose isomerase (western)", "result": "expressed in both the soluble and insoluble fractions"}, {"measurement": "expression of xylose isomerase (western)", "setting": "listed as wild type R. flavefaciens xylose isomerase", "result": "expressed in the soluble fraction"}]}
